## Potato spindle tuber viroid, stem 15: variant abundance in plants

Region: stem 15 of PSTVd (intermediate strain), upper and lower strand joined, each 5' to 3', the first 9 letters being the upper strand. Wild type: CUGGAGCGAUCGCUUCGG. Varied positions (N): CUGGAGCGAUNGNNUNNG.

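Three N. benthamiana plants were inoculated with the whole mutant pool. Progeny were sequenced from the inoculated region (day 5), the margin of the inoculated leaf (day 10) and systemic leaves (day 12).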

Values are reads per thousand in the sample; higher means more abundant, 0 means not found. Each value is the mean of three plants. "Pool" is the share in the plasmid pool used as inoculum, on the same scale. The inoculated region was read from the minus strand, the other sites from the plus strand. The authors trace changes outside the varied positions to PCR and sequencing errors or to mutation in the plant; presence does not show that a variant is infectious alone. Wild type was 10.2 per thousand in the pool and the most common sequence in every sample (inoculated region 285, 367, 312; leaf margin 785, 865, 782; systemic leaves 854, 898, 915). With 36,693-63,082 reads a sample, very low values are single reads.

With CUGGAGCGAUUGCCUUUG (pool 0.808) the assay gave inoculated region 1.52; leaf margin 0.341; systemic leaves 0.
With CUGGAUCGAUUGCCUAGG (pool 0.0162) the assay gave inoculated region 0; leaf margin 0; systemic leaves 0.
With CUGGAGCGAUUGGAUUAG (pool 0.905) the assay gave inoculated region 1.56; leaf margin 0.529; systemic leaves 0.
With CUGGAGCGAUAGGAUAUG (pool 0.986) the assay gave inoculated region 0.363; leaf margin 0.0510; systemic leaves 0.
With CUGGAGCGAUCGGCUCUG (pool 0.711) the assay gave inoculated region 0.196; leaf margin 0.0251; systemic leaves 0.
With CUGGAGCGAUGGAUUCUG (pool 0.970) the assay gave inoculated region 0.267; leaf margin 0.00528; systemic leaves 0.
With CUGGAGCGAUUGGUUAUG (pool 1.86) the assay gave inoculated region 0.585; leaf margin 0.0419; systemic leaves 0.
With CUGGAGCGAUGGCCUCGG (pool 0.986) the assay gave inoculated region 0.259; leaf margin 0.0340; systemic leaves 0.
With CUGGAGCGAUCGAAUCUG (pool 0.792) the assay gave inoculated region 0.242; leaf margin 0.0213; systemic leaves 0.
With CUGGAGCGAUCGAAUUGG (pool 0.970) the assay gave inoculated region 0.267; leaf margin 0.0312; systemic leaves 0.
With CUGGAGCGAUGGCUUCCG (pool 0.970) the assay gave inoculated region 0.287; leaf margin 0.0450; systemic leaves 0.
With CUGGAGCGAUUUCUUAGG (pool 0.0162) the assay gave inoculated region 0; leaf margin 0; systemic leaves 0.
With CUGGAGCGAUUGUGUAUG (pool 0.970) the assay gave inoculated region 0.260; leaf margin 0.0312; systemic leaves 0.
With CUGGAGCGAUCCCUUCGG (pool 0.0162) the assay gave inoculated region 0.0472; leaf margin 0.0227; systemic leaves 0.0214.
With CUGGAGCGAUCGGAUCCG (pool 0.857) the assay gave inoculated region 0.235; leaf margin 0.0441; systemic leaves 0.
With CUGGAGCGAUGGCUUAGG (pool 1.18) the assay gave inoculated region 0.293; leaf margin 0.0260; systemic leaves 0.
With CUGGAGCGAUAGCCUGAG (pool 0.857) the assay gave inoculated region 0.340; leaf margin 0.0249; systemic leaves 0.
With CAGGAGCGAUUGUUUUCG (pool 0.0162) the assay gave inoculated region 0; leaf margin 0; systemic leaves 0.
With CUGGAGCGAUAGGAUGUG (pool 0.663) the assay gave inoculated region 0.295; leaf margin 0.108; systemic leaves 0.
With CCGGAGCGAUGGUCUGAG (pool 0.0162) the assay gave inoculated region 0.00620; leaf margin 0; systemic leaves 0.
With CUGGAGCGAUAGGCUAUG (pool 0.792) the assay gave inoculated region 0.254; leaf margin 0.0563; systemic leaves 0.
With CUGGAGCGAUGGUCUGUG (pool 0.873) the assay gave inoculated region 0.374; leaf margin 0.0510; systemic leaves 0.
With CUGGAGCGAACGCUUCGG (pool 0.0162) the assay gave inoculated region 0.0723; leaf margin 0.0478; systemic leaves 0.0338.
With CUGGAGCGAUGGGUUCGG (pool 0.921) the assay gave inoculated region 0.292; leaf margin 0.0251; systemic leaves 0.
With CUGGAGCGAUGGUUUGCG (pool 1.70) the assay gave inoculated region 1.13; leaf margin 0.0235; systemic leaves 0.00664.
With CUGGAGCGAUAGCCUAAG (pool 0.905) the assay gave inoculated region 0.243; leaf margin 0.0350; systemic leaves 0.
With CUGGAGCGAUGGUCUUAG (pool 1.13) the assay gave inoculated region 1.62; leaf margin 0.691; systemic leaves 0.603.
With CUGGAGCGAUCGCGUGCG (pool 0.986) the assay gave inoculated region 0.248; leaf margin 0.0638; systemic leaves 0.
With CUGGAGCGAUAGUAUGAG (pool 0.792) the assay gave inoculated region 0.249; leaf margin 0.0425; systemic leaves 0.
With CUGGAGCGAUGGCGUCGG (pool 0.614) the assay gave inoculated region 0.327; leaf margin 0.0594; systemic leaves 0.
With CUGGAGCGAUAGUGUAUG (pool 0.760) the assay gave inoculated region 0.247; leaf margin 0.0235; systemic leaves 0.
With CUGGAGCGAUAGUAUUCG (pool 0.711) the assay gave inoculated region 0.214; leaf margin 0.0213; systemic leaves 0.429.
With CUGGAGCGAUAGCUUGAG (pool 0.921) the assay gave inoculated region 0.308; leaf margin 0.0516; systemic leaves 0.
With CUGGAGCGAUUGCGUGAG (pool 0.743) the assay gave inoculated region 0.300; leaf margin 0.0175; systemic leaves 0.
With CUGGAGCGAUUGCGUAGG (pool 0.986) the assay gave inoculated region 0.259; leaf margin 0.0378; systemic leaves 0.
With CUGGAGCGAUCGAGUGGG (pool 0.905) the assay gave inoculated region 0.257; leaf margin 0.0312; systemic leaves 0.
With CUGGAGCGAUGGCCUCCG (pool 0.760) the assay gave inoculated region 0.348; leaf margin 0.0679; systemic leaves 0.
With CUGGAGCGAUCGUCUCUG (pool 0.743) the assay gave inoculated region 0.223; leaf margin 0.0144; systemic leaves 0.

The first 3 entries again:

sequence,pool,inoculated region,leaf margin,systemic leaves
CUGGAGCGAUUGCCUUUG,0.808,1.52,0.341,0
CUGGAUCGAUUGCCUAGG,0.0162,0,0,0
CUGGAGCGAUUGGAUUAG,0.905,1.56,0.529,0

Reference: Wu et al. 2024, doi:10.1371/journal.ppat.1012142.